Consider 1 molecule from patent publication US20240238428A1 (priority 2021, published 2024).

This assay concerns the target HIV viral gp120 protein (on virus) (HIV-1). The assay can be described thus: cell-based or functional assay.

Molecule TYICEVEDQKEE (modifications not checked) [CD4 12-mer selenopeptide Se-…] came in with a fold increase in effectiveness at preventing infection over the peptide without selenium of 50 fold.
